This is an account of results in US7642280B2, “Inhibitors of acyl glucosaminyl inositol amidase and methods of use” (The Regents of the University of California, priority 2001, dated 2010).

By UniProt entry, the sequences of proteins in these tests, tags left out.
UniProt P9WJN1, whole entry: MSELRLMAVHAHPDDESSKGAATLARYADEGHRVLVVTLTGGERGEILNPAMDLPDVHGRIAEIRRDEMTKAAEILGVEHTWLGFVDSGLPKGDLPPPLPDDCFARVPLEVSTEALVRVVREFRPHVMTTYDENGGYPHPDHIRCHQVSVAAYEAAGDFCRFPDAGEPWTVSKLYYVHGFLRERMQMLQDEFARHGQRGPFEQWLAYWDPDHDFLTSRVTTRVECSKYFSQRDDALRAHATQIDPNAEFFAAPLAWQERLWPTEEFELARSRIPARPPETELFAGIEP

For the assay, the target named is M. tuberculosis MCA (Mycobacterium tuberculosis, UniProt P9WJN1). The experiment in a line: Fluorescence-based HPLC IC50 assay, recombinant M. tuberculosis MCA with synthetic MSmB. To be noted: read-out: IC50 M. tb; recombinant M. tuberculosis MCA approx. 20 nM, 30 μM synthetic MSmB, 20 min, 31° C.

The term IC50 denotes the concentration that inhibits the measured activity by half. Take `N=C(N)NCCCCNC(=O)C(Cc1cc(Br)c(OCCCN)c(Br)c1)=NO`: the half-inhibitory concentration (IC50) came to 10 µM.
With `NCCCOc1c(Br)cc(CC(=NO)C(=O)NCCc2cnc(N)[nH]2)cc1Br` the figure was 30 µM.
